Pooled drug test results. Numbers come from NIAID ChemDB, via PubChem.

Shared fields: tests in culture; organism: Herpes simplex virus 1; endpoint: inhibition

Lines come from different laboratories, so protocols vary. Percent inhibition refers to the dose given; in toxicity tests it is the harm to the cells. An empty or dashed field is not shown.

CCCn1cnc(=N)c2[nH]cnc21 ; cell line: BSC-1 ; read by: plaque count ; tested at: 6 µg/mL ; value: 0%
O=[N+]([O-])c1ccc2nc3c(cnc4c3cnn4-c3ccccc3)c(Cl)c2c1 ; read by: virus yield ; tested at: 50 µM ; value: 87%
Nc1nc2c(ncn2COCCO)c(=O)[nH]1 ; strain: F ; cell line: HL ; read by: virus yield ; tested at: 5 µg/mL ; value: 97.5%
Nc1nc2c(ncn2COC(CO)CO)c(=O)[nH]1 ; strain: SC16 (mutant S1) ; cell line: WI-38 ; read by: plaque count ; tested at: 1 µM ; value: 90%
Fc1cccc2nc3c(cnc4c3cnn4-c3ccccc3)c(Cl)c12 ; read by: virus yield ; tested at: 50 µM ; value: 91%
O=c1[nH]c(=O)n([C@H]2C[C@H](O)[C@@H](CO)O2)cc1CCCl ; cell line: HEP-2 ; read by: cytopathic effect ; tested at: 0.03 µg/mL ; value: ≥25%
CC(=O)N[C@@H](CC(C)C)C(=O)N[C@@H](CC(C)C)C(=O)N[C@H](C=O)CCCN=C(N)N ; strain: Fukuda ; cell line: CV-1 ; read by: plaque count ; tested at: 20 µM ; value: 38%
CCn1cnc(=N)c2[nH]cnc21 ; cell line: BSC-1 ; read by: plaque count ; tested at: 25 µg/mL ; value: 0%
Cc1nnc2nc3c(nn12)c1ccccc1n3C ; cell line: BSC-1 ; read by: plaque count ; tested at: 60 µg/mL ; value: >99%
C/C=C/c1cn([C@@H]2O[C@H](CO)[C@@H](O)[C@@H]2O)c(=O)[nH]c1=O ; strain: C42 ; cell line: VERO ; read by: plaque count ; tested at: 100 µM ; value: 0%
Clc1ncnc2nc(-c3cscn3)[nH]c12 ; cell line: VERO ; read by: plaque count ; tested at: 10 µg/mL ; value: 0%
Clc1c2cc(Br)ccc2nc2c1cnc1c2cnn1-c1ccccc1 ; read by: virus yield ; tested at: 50 µM ; value: 30%
Cc1cccc(Cn2cnc(=N)c3[nH]cnc32)c1 ; cell line: BSC-1 ; read by: plaque count ; tested at: 6 µg/mL ; value: 0%
Cc1cn([C@@H]2O[C@H](CO)[C@@H](O)[C@@H]2F)c(=O)[nH]c1=O ; strain: KOS ; cell line: PRK ; read by: cytopathic effect ; tested at: 0.04 µg/mL ; value: ≥25%
Cc1cccc2nc3c(cnc4c3cnn4-c3ccccc3)c(Cl)c12 ; read by: virus yield ; tested at: 50 µM ; value: 68%
Nc1nc2c(ncn2COC(CO)CO)c(=O)[nH]1 ; strain: KOS ; cell line: PRK ; read by: cytopathic effect ; tested at: 0.2 µg/mL ; value: ≥25%
N=c1ncn(CC2CCCCC2)c2nc[nH]c12 ; cell line: BSC-1 ; read by: plaque count ; tested at: 6 µg/mL ; value: 0%
C/C=C/c1cn([C@H]2C[C@H](O)[C@@H](CO)O2)c(=O)[nH]c1=O ; strain: C42 ; cell line: VERO ; read by: plaque count ; tested at: 0.1 µM ; value: 17%
Nc1nc(=O)n([C@@H]2O[C@H](CO)[C@@H](O)[C@@H]2F)cc1I ; cell line: HEP-2 ; read by: cytopathic effect ; tested at: 0.01 µg/mL ; value: ≥25%
CC(C)[C@H](NC(=O)[C@H](CCCN=C(N)N)NC(=O)N[C@@H](Cc1ccccc1)C(=O)O)C(=O)N[C@H](C=O)CCCN=C(N)N ; strain: Fukuda ; cell line: CV-1 ; read by: plaque count ; tested at: 40 µM ; value: 60%
Cc1ccc(Cn2cnc(=N)c3[nH]cnc32)cc1 ; cell line: BSC-1 ; read by: plaque count ; tested at: 25 µg/mL ; value: 0%

Repeating the first 3 entries:

structure | strain | cell line | read by | tested at | value
CCCn1cnc(=N)c2[nH]cnc21 | - | BSC-1 | plaque count | 6 µg/mL | 0%
O=[N+]([O-])c1ccc2nc3c(cnc4c3cnn4-c3ccccc3)c(Cl)c2c1 | - | - | virus yield | 50 µM | 87%
Nc1nc2c(ncn2COCCO)c(=O)[nH]1 | F | HL | virus yield | 5 µg/mL | 97.5%